Results of unrelated studies side by side (data: NIAID ChemDB).

Shared fields: toxicity to cultured cells; cell line: HepG2; endpoint: CC50

a–b is a range or a potency band. CCn: concentration that lowers growth or viability of the cells by n%. Neighbouring rows are from separate reports.

Cc1cc(NC(=O)c2c(C)c(C(=O)C(=O)N[C@@H]3CC[C@H](O)C[C@@H]3F)n(C)c2C)ccc1F ; method: MTT ; result: 5–30 µM
CCCN(Cc1ccc(OCC(=O)O)cc1)C(=O)c1ccc(-c2ccc3c(c2)OCO3)cc1 ; result: >20 µM
CCc1c(C(=O)Nc2ccc(F)c(C)c2)c(C)n(C)c1C(=O)C(=O)NC1(C)CC(O)C1 ; method: MTT ; result: >30 µM
CC(C)N(Cc1ccccc1OCC(=O)O)C(=O)c1ccc(-c2ccc3c(c2)OCO3)cc1 ; result: >20 µM
Cc1cc(NC(=O)c2c(C)c(C(=O)C(=O)NC3(C)CCC(O)CC3)n(C)c2-c2cccnc2)ccc1F ; method: MTT ; result: >30 µM
CNC(=O)C1CCC(n2c(NC(C)C)nc3c(c2=O)C[C@@H](C)N(C(=O)c2ccc(Br)c(C(F)(F)F)c2)C3)CC1 ; method: luminescence ; result: 21.3 µM
COc1ccccc1Oc1ccc2c(NCCCNCc3ccco3)ccnc2c1 ; method: fluorescence ; result: 6.5 µM
CC(C)N(Cc1cccc(OCCCCCC(=O)OC(=O)O)c1)C(=O)c1ccc(-c2ccc3cc[nH]c3c2)cc1 ; result: >20 µM
CNC(=O)c1ccc(-n2c(NC(C)C)nc3c(c2=O)C[C@@H](C)N(C(=O)c2ccc(Cl)c(C(F)(F)F)c2Cl)C3)cc1 ; method: luminescence ; result: >50 µM
CCc1c(C(=O)Nc2ccc(F)c(C)c2)c(C)n(C)c1C(=O)C(=O)NC1CCC(S(C)(=O)=O)CC1 ; method: MTT ; result: >30 µM
CNC(=O)[C@@H]1CC[C@H](n2c(NC(C)C)nc3c(c2=O)C[C@@H](C)N(C(=O)c2ccc(Br)c(C(F)(F)F)c2)C3)C1 ; method: luminescence ; result: 16.3 µM
CC(C)N(Cc1ccc(OCC(=O)O)cc1)C(=O)c1ccc(-c2ccc3c(c2)OCO3)cc1 ; result: >20 µM
Fc1ccc(Cc2ccc3c(NCCCNCc4ccco4)ccnc3c2)c(Cl)c1 ; method: fluorescence ; result: 5.73 µM
COc1cc(C)ccc1OCCOc1ccccc1F ; result: >20 µM
Cc1cc(NC(=O)c2c(C)c(C(=O)C(=O)N[C@H]3CN[C@H](C(=O)O)C3)n(C)c2C)ccc1F ; method: MTT ; result: >30 µM
COc1cccc(CNCCCNc2ccnc3cc(Oc4ccc(Cl)cc4)ccc23)c1O ; method: fluorescence ; result: 5.7 µM
CCOC(=O)CCCCCOc1cccc(CN(C(=O)c2ccc(-c3cccc(S(C)(=O)=O)c3)cc2)C(C)C)c1 ; result: >20 µM
CNC(=O)c1cc(-n2c(NC(C)C)nc3c(c2=O)C[C@@H](C)N(C(=O)c2ccc(Cl)c(C(F)(F)F)c2)C3)ccn1 ; method: luminescence ; result: >50 µM
CCc1c(C(=O)Nc2ccc(F)c(C)c2)c(C)c(C(=O)C(=O)NC2CCC(O)CC2)n1C ; method: MTT ; result: 5–30 µM
CCC(CC)c1ccc2c(NCCCNCc3cccc(OC)c3O)ccnc2c1 ; method: fluorescence ; result: 0.41 µM
Cc1c(C(=O)Nc2ccc(F)c(Br)c2)c(C)n(C)c1C(=O)C(=O)NC1(C)CCC(O)CC1 ; method: MTT ; result: >30 µM
C=CCCC(=O)NC[C@H](O)c1ccc2c(c1)OCO2 ; result: >20 µM
Cc1cc(NC(=O)c2c(C)c(C(=O)C(=O)NC34CC(O)(C3)C4)n(C)c2C)ccc1F ; method: MTT ; result: >30 µM
CCOC(=O)CCCCCOc1cccc(CN(C(=O)c2ccc(-c3cccc(OC(C)C)c3)cc2)C(C)C)c1 ; result: >20 µM
FC(F)(F)c1cc(-c2ccc3c(NCCCNCc4ccco4)ccnc3c2)cc(C(F)(F)F)c1 ; method: fluorescence ; result: 2.41 µM

Again, the opening 2 rows:

Cc1cc(NC(=O)c2c(C)c(C(=O)C(=O)N[C@@H]3CC[C@H](O)C[C@@H]3F)n(C)c2C)ccc1F ; method: MTT ; result: 5–30 µM
CCCN(Cc1ccc(OCC(=O)O)cc1)C(=O)c1ccc(-c2ccc3c(c2)OCO3)cc1 ; result: >20 µM